Experimental findings from patent US20220193209A1, “COMPOSITIONS AND METHODS FOR REACTIVATING LATENT IMMUNODEFICIENCY VIRUS AND/OR TREATING IMMUNODEFICIENCY VIRUS INFECTION” (The J. David Gladstone institutes, a testamentary trust …, priority 2019, published 2022) are described below.

For the data set, the system named is primary CD4+ T cells. Briefly: RNA-Seq of primary CD4+ T cells. The class given is cell-based, human.
[1] abbreviates: 1000 nM vs DMSO, 48 hours, q<0.05.

Under setting [1], `CCn1cc(C(=O)O)c(=O)c2c(N)c(F)c(NC3CCCCC3)cc21` [AS1842856, 5-amino-7-(cyclohexylamino)-1-ethyl-6-fluoro-4-oxo-1,4-dihydro-quinoline-3-carboxylic acid] gave a genes significantly down-regulated of 160 genes and a genes significantly up-regulated of 172 genes. Moreover, the “expression of glycolytic enzymes or FOXO1 itself” value (CD4+ T cells) is given as “did not affect”.
